Reference: ChEMBL document CHEMBL5346973 (J Med Chem, 2023)

Chains of the proteins cited; added tags and fusions are not shown. Residues count along the entry.
UniProt P04756, 21-457 limits assumed: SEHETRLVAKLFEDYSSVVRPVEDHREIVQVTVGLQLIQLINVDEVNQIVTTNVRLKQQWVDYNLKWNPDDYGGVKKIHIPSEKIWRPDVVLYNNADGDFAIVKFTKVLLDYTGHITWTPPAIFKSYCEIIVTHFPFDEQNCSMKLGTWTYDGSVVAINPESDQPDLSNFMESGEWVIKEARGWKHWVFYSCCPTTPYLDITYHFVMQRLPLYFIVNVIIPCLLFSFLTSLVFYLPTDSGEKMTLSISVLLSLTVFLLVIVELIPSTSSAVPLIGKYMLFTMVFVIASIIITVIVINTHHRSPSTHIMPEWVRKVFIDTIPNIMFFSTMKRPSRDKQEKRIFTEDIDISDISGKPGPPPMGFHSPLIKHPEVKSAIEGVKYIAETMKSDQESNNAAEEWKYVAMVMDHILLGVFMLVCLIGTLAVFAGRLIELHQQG
UniProt P09690, 24-501 partner limits assumed: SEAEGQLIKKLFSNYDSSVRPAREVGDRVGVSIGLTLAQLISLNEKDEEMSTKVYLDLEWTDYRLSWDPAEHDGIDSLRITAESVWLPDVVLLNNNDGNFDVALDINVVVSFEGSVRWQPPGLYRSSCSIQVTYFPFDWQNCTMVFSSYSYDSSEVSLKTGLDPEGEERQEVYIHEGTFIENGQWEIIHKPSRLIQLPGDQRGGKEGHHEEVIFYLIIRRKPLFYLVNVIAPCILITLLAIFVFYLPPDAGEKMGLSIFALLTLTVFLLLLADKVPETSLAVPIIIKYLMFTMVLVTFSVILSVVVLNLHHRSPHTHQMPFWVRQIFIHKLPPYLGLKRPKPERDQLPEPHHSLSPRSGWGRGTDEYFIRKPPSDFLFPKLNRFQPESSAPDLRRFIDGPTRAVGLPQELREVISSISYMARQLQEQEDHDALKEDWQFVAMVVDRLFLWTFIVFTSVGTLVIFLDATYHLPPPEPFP
UniProt P02716, 25-520 partner limits assumed: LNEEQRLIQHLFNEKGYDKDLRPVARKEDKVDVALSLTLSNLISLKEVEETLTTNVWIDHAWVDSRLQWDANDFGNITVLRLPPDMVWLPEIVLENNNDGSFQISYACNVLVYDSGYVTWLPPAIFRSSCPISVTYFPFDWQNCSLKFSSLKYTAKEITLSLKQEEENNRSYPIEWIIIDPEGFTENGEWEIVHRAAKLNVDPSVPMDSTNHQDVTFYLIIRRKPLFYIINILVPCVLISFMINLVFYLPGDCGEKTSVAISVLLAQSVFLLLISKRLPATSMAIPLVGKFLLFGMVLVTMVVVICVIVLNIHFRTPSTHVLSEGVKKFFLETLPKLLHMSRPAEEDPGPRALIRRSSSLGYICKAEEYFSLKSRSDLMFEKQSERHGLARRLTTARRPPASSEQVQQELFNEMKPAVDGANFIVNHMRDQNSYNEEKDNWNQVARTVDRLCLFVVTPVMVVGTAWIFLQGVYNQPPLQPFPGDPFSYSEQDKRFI
UniProt P20782, 21-493 partner limits assumed: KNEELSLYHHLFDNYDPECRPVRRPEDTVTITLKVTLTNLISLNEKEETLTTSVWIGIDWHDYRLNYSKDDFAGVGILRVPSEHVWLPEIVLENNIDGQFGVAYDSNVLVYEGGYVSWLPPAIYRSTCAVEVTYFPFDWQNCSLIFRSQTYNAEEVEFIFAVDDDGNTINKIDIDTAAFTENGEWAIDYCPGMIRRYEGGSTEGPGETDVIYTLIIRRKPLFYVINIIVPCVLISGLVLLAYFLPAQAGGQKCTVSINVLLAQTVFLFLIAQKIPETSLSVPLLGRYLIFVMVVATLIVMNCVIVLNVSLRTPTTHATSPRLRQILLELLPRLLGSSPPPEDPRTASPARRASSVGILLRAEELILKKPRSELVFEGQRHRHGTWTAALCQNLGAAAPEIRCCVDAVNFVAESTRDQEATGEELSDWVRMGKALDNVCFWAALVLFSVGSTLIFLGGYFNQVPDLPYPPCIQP

Tests used:
[1] = target: Nicotinic acetylcholine receptor alpha1/beta1/epsilon/delta (Mus musculus) (UniProt P04756+P09690+P02716+P20782); assay: Antagonist activity at mouse alpha1beta1deltaepsilon nACh receptor expressed in Xenopus oocyte assessed as inhibition of acetylcholine-induced response at -70 mV holding potential by measuring ratio of IC50 by voltage-clamp based electrophysiological assay relative to GeXIVA; details: filed as antagonist
[2] = Selectivity ratio of IC50 for mouse alpha1beta1deltaepsilon nACh receptor to IC50 for rat alpha9alpha10 nACh receptor

| Structure (SMILES) | Ratio IC50 [1] | Ratio IC50 [2] |
| --- | --- | --- |
| CC[C@H](C)[C@@H]1NC(=O)[C@H](CCCNC(=N)N)NC(=O)[C@H](CCCNC(=N)N)NC(=O)[C@@H]2CSSC[C@H](NC(=O)[C@H](Cc3ccc(O)cc3)NC(=O)[C@H](CCCNC(=N)N)NC(=O)[C@H](C)NC(=O)[C@H](CO)NC(=O)[C@H](CO)NC(=O)[C@H](CCCNC(=N)N)NC(=O)[C@@H](NC(=O)[C@@H](N)[C@@H](C)O)CSSC[C@@H](C(=O)N[C@H](C(=O)O)C(C)C)NC(=O)[C@H](C)NC(=O)[C@H](CC(=O)O)NC(=O)[C@H]([C@@H](C)O)NC1=O)C(=O)N[C@@H](CCCNC(=N)N)C(=O)N[C@@H](CO)C(=O)N1CCC[C@H]1C(=O)N[C@@H](Cc1ccc(O)cc1)C(=O)N[C@@H](CC(=O)O)C(=O)N[C@@H](CCCNC(=N)N)C(=O)N[C@@H](CCCNC(=N)N)C(=O)N[C@@H](CCCNC(=N)N)C(=O)N[C@@H](CCCNC(=N)N)C(=O)N[C@@H](Cc1ccc(O)cc1)C(=O)N2 | 0.9 | 45.3 |
| CC[C@H](C)[C@@H]1NC(=O)[C@H](CCCNC(=N)N)NC(=O)[C@H](CCCNC(=N)N)NC(=O)[C@@H](NC(=O)[C@H](Cc2ccc(O)cc2)NC(=O)[C@H](CCCNC(=N)N)NC(=O)[C@H](CCCNC(=N)N)NC(=O)[C@H](CCCNC(=N)N)NC(=O)[C@H](CCCNC(=N)N)NC(=O)[C@H](CC(=O)O)NC(=O)[C@H](Cc2ccc(O)cc2)NC(=O)[C@@H]2CCCN2C(=O)[C@H](CO)NC(=O)[C@H](CCCNC(=N)N)NC(=O)[C@@H]2CSSC[C@H](NC(=O)[C@@H](N)[C@@H](C)O)C(=O)N[C@@H](CCCNC(=N)N)C(=O)N[C@@H](CO)C(=O)N[C@@H](CO)C(=O)NCC(=O)N[C@@H](C)C(=O)N[C@@H](Cc3ccc(O)cc3)C(=O)N2)CSSC[C@@H](C(=O)N[C@H](C(=O)O)C(C)C)NC(=O)[C@H](C)NC(=O)[C@H](CC(=O)O)NC(=O)[C@H]([C@@H](C)O)NC1=O | 5.6 | 66.6 |
| CC[C@H](C)[C@@H]1NC(=O)[C@H](CCCNC(=N)N)NC(=O)[C@H](C)NC(=O)[C@@H]2CSSC[C@H](NC(=O)[C@H](Cc3ccc(O)cc3)NC(=O)[C@H](CCCNC(=N)N)NC(=O)CNC(=O)[C@H](CO)NC(=O)[C@H](CO)NC(=O)[C@H](CCCNC(=N)N)NC(=O)[C@@H](NC(=O)[C@@H](N)[C@@H](C)O)CSSC[C@@H](C(=O)N[C@H](C(=O)O)C(C)C)NC(=O)[C@H](C)NC(=O)[C@H](CC(=O)O)NC(=O)[C@H]([C@@H](C)O)NC1=O)C(=O)N[C@@H](CCCNC(=N)N)C(=O)N[C@@H](CO)C(=O)N1CCC[C@H]1C(=O)N[C@@H](Cc1ccc(O)cc1)C(=O)N[C@@H](CC(=O)O)C(=O)N[C@@H](CCCNC(=N)N)C(=O)N[C@@H](CCCNC(=N)N)C(=O)N[C@@H](CCCNC(=N)N)C(=O)N[C@@H](CCCNC(=N)N)C(=O)N[C@@H](Cc1ccc(O)cc1)C(=O)N2 | 1 | 23.2 |
| CC[C@H](C)[C@@H]1NC(=O)[C@H](CCCNC(=N)N)NC(=O)[C@H](CCCNC(=N)N)NC(=O)[C@@H]2CSSC[C@H](NC(=O)[C@H](Cc3ccc(O)cc3)NC(=O)[C@H](CCCNC(=N)N)NC(=O)CNC(=O)[C@H](CO)NC(=O)[C@H](CO)NC(=O)[C@H](CCCNC(=N)N)NC(=O)[C@@H](NC(=O)[C@H](C)N)CSSC[C@@H](C(=O)N[C@H](C(=O)O)C(C)C)NC(=O)[C@H](C)NC(=O)[C@H](C)NC(=O)[C@H]([C@@H](C)O)NC1=O)C(=O)N[C@@H](CCCNC(=N)N)C(=O)N[C@@H](CO)C(=O)N1CCC[C@H]1C(=O)N[C@@H](Cc1ccc(O)cc1)C(=O)N[C@@H](CC(=O)O)C(=O)N[C@@H](CCCNC(=N)N)C(=O)N[C@@H](CCCNC(=N)N)C(=O)N[C@@H](CCCNC(=N)N)C(=O)N[C@@H](CCCNC(=N)N)C(=O)N[C@@H](Cc1ccc(O)cc1)C(=O)N2 | 1.8 | 56.7 |
| CC[C@H](C)[C@@H]1NC(=O)[C@H](CCCNC(=N)N)NC(=O)[C@H](CCCNC(=N)N)NC(=O)[C@@H](NC(=O)[C@H](Cc2ccc(O)cc2)NC(=O)[C@H](CCCNC(=N)N)NC(=O)[C@H](CCCNC(=N)N)NC(=O)[C@H](CCCNC(=N)N)NC(=O)[C@H](CCCNC(=N)N)NC(=O)[C@H](CC(=O)O)NC(=O)[C@H](Cc2ccc(O)cc2)NC(=O)[C@@H]2CCCN2C(=O)[C@H](CO)NC(=O)[C@H](CCCNC(=N)N)NC(=O)[C@@H]2CSSC[C@H](NC(=O)[C@@H](N)[C@@H](C)O)C(=O)N[C@@H](CCCNC(=N)N)C(=O)N[C@@H](CO)C(=O)N[C@@H](CO)C(=O)NCC(=O)N[C@@H](CCCNC(=N)N)C(=O)N[C@@H](Cc3ccc(O)cc3)C(=O)N2)CSSC[C@@H](C(=O)N[C@H](C(=O)O)C(C)C)NC(=O)[C@H](C)NC(=O)[C@H](CC(=O)O)NC(=O)[C@H](C)NC1=O | 7.5 | 186 |
| CC[C@H](C)[C@@H]1NC(=O)[C@H](CCCNC(=N)N)NC(=O)[C@H](CCCNC(=N)N)NC(=O)[C@@H](NC(=O)[C@H](Cc2ccc(O)cc2)NC(=O)[C@H](CCCNC(=N)N)NC(=O)[C@H](CCCNC(=N)N)NC(=O)[C@H](CCCNC(=N)N)NC(=O)[C@H](CCCNC(=N)N)NC(=O)[C@H](CC(=O)O)NC(=O)[C@H](Cc2ccc(O)cc2)NC(=O)[C@@H]2CCCN2C(=O)[C@H](CO)NC(=O)[C@H](CCCNC(=N)N)NC(=O)[C@@H]2CSSC[C@H](NC(=O)[C@@H](N)[C@@H](C)O)C(=O)N[C@@H](CCCNC(=N)N)C(=O)N[C@@H](C)C(=O)N[C@@H](CO)C(=O)NCC(=O)N[C@@H](CCCNC(=N)N)C(=O)N[C@@H](Cc3ccc(O)cc3)C(=O)N2)CSSC[C@@H](C(=O)N[C@H](C(=O)O)C(C)C)NC(=O)[C@H](C)NC(=O)[C@H](CC(=O)O)NC(=O)[C@H]([C@@H](C)O)NC1=O | 1.9 | 83.3 |
| CC[C@H](C)[C@@H]1NC(=O)[C@H](CCCNC(=N)N)NC(=O)[C@H](CCCNC(=N)N)NC(=O)[C@@H]2CSSC[C@H](NC(=O)[C@H](Cc3ccc(O)cc3)NC(=O)[C@H](CCCNC(=N)N)NC(=O)CNC(=O)[C@H](CO)NC(=O)[C@H](CO)NC(=O)[C@H](CCCNC(=N)N)NC(=O)[C@@H](NC(=O)[C@@H](N)[C@@H](C)O)CSSC[C@@H](C(=O)N[C@H](C(=O)O)C(C)C)NC(=O)[C@H](C)NC(=O)[C@H](CC(=O)O)NC(=O)[C@H]([C@@H](C)O)NC1=O)C(=O)N[C@@H](CCCNC(=N)N)C(=O)N[C@@H](C)C(=O)N1CCC[C@H]1C(=O)N[C@@H](Cc1ccc(O)cc1)C(=O)N[C@@H](CC(=O)O)C(=O)N[C@@H](CCCNC(=N)N)C(=O)N[C@@H](CCCNC(=N)N)C(=O)N[C@@H](CCCNC(=N)N)C(=O)N[C@@H](CCCNC(=N)N)C(=O)N[C@@H](Cc1ccc(O)cc1)C(=O)N2 | 1.5 | 129 |
| CC[C@H](C)[C@@H]1NC(=O)[C@H](CCCNC(=N)N)NC(=O)[C@H](CCCNC(=N)N)NC(=O)[C@@H]2CSSC[C@H](NC(=O)[C@H](Cc3ccc(O)cc3)NC(=O)[C@H](C)NC(=O)CNC(=O)[C@H](CO)NC(=O)[C@H](CO)NC(=O)[C@H](CCCNC(=N)N)NC(=O)[C@@H](NC(=O)[C@@H](N)[C@@H](C)O)CSSC[C@@H](C(=O)N[C@H](C(=O)O)C(C)C)NC(=O)[C@H](C)NC(=O)[C@H](CC(=O)O)NC(=O)[C@H]([C@@H](C)O)NC1=O)C(=O)N[C@@H](CCCNC(=N)N)C(=O)N[C@@H](CO)C(=O)N1CCC[C@H]1C(=O)N[C@@H](Cc1ccc(O)cc1)C(=O)N[C@@H](CC(=O)O)C(=O)N[C@@H](CCCNC(=N)N)C(=O)N[C@@H](CCCNC(=N)N)C(=O)N[C@@H](CCCNC(=N)N)C(=O)N[C@@H](CCCNC(=N)N)C(=O)N[C@@H](Cc1ccc(O)cc1)C(=O)N2 | 4.2 | 72.9 |
| CC[C@H](C)[C@@H]1NC(=O)[C@H](CCCNC(=N)N)NC(=O)[C@H](CCCNC(=N)N)NC(=O)[C@@H](NC(=O)[C@H](Cc2ccc(O)cc2)NC(=O)[C@H](CCCNC(=N)N)NC(=O)[C@H](CCCNC(=N)N)NC(=O)[C@H](CCCNC(=N)N)NC(=O)[C@H](CCCNC(=N)N)NC(=O)[C@H](CC(=O)O)NC(=O)[C@H](Cc2ccc(O)cc2)NC(=O)[C@@H]2CCCN2C(=O)[C@H](CO)NC(=O)[C@H](CCCNC(=N)N)NC(=O)[C@@H]2CSSC[C@H](NC(=O)[C@@H](N)[C@@H](C)O)C(=O)N[C@@H](CCCNC(=N)N)C(=O)N[C@@H](CO)C(=O)N[C@@H](CO)C(=O)NCC(=O)N[C@@H](CCCNC(=N)N)C(=O)N[C@@H](Cc3ccc(O)cc3)C(=O)N2)CSSC[C@@H](C(=O)N[C@H](C(=O)O)C(C)C)NC(=O)[C@H](C)NC(=O)[C@@H](C)NC(=O)[C@H]([C@@H](C)O)NC1=O | 6.4 | 255 |
| CC[C@H](C)[C@@H]1NC(=O)[C@H](CCCNC(=N)N)NC(=O)[C@H](CCCNC(=N)N)NC(=O)[C@@H](NC(=O)[C@H](Cc2ccc(O)cc2)NC(=O)[C@H](CCCNC(=N)N)NC(=O)[C@H](CCCNC(=N)N)NC(=O)[C@H](CCCNC(=N)N)NC(=O)[C@H](CCCNC(=N)N)NC(=O)[C@H](CC(=O)O)NC(=O)[C@H](C)NC(=O)[C@@H]2CCCN2C(=O)[C@H](CO)NC(=O)[C@H](CCCNC(=N)N)NC(=O)[C@@H]2CSSC[C@H](NC(=O)[C@@H](N)[C@@H](C)O)C(=O)N[C@@H](CCCNC(=N)N)C(=O)N[C@@H](CO)C(=O)N[C@@H](CO)C(=O)NCC(=O)N[C@@H](CCCNC(=N)N)C(=O)N[C@@H](Cc3ccc(O)cc3)C(=O)N2)CSSC[C@@H](C(=O)N[C@H](C(=O)O)C(C)C)NC(=O)[C@H](C)NC(=O)[C@H](CC(=O)O)NC(=O)[C@H]([C@@H](C)O)NC1=O | 1.9 | 88.2 |
| CC[C@H](C)[C@@H]1NC(=O)[C@H](CCCNC(=N)N)NC(=O)[C@H](CCCNC(=N)N)NC(=O)[C@@H]2CSSC[C@H](NC(=O)[C@H](Cc3ccc(O)cc3)NC(=O)[C@H](CCCNC(=N)N)NC(=O)CNC(=O)[C@H](CO)NC(=O)[C@H](C)NC(=O)[C@H](CCCNC(=N)N)NC(=O)[C@@H](NC(=O)[C@@H](N)[C@@H](C)O)CSSC[C@@H](C(=O)N[C@H](C(=O)O)C(C)C)NC(=O)[C@H](C)NC(=O)[C@H](CC(=O)O)NC(=O)[C@H]([C@@H](C)O)NC1=O)C(=O)N[C@@H](CCCNC(=N)N)C(=O)N[C@@H](CO)C(=O)N1CCC[C@H]1C(=O)N[C@@H](Cc1ccc(O)cc1)C(=O)N[C@@H](CC(=O)O)C(=O)N[C@@H](CCCNC(=N)N)C(=O)N[C@@H](CCCNC(=N)N)C(=O)N[C@@H](CCCNC(=N)N)C(=O)N[C@@H](CCCNC(=N)N)C(=O)N[C@@H](Cc1ccc(O)cc1)C(=O)N2 |  | 53.5 |
